Compound potency records, mixed from different reports. Data source: NIAID ChemDB in PubChem.

ICn is the concentration giving n% inhibition. Inhibition is in % at the dose shown (toxicity tests: loss of growth or viability). ECn is the concentration giving n% inhibition of infection, replication or growth. MIC50, MIC90 and the like: level of inhibition, or share of isolates inhibited. Rows are shuffled and stem from different studies. Blank or dashed fields: not listed here.

SMILES	kind	species	strain or isolate	cell line	target	read by	endpoint	dose	value
CCC(CC)O[C@@H]1C=C(C(=O)O)C[C@H](N)[C@H]1NC(C)=O	culture	Influenza A virus	Influenza A/Victoria/3/75 (H3N2)	MDCK	-	visual reading	EC50	-	0.06 µM
CCOC(=O)c1c(C)nc(NCCCCNc2ccnc3cc(Cl)ccc23)nc1-c1ccccc1[N+](=O)[O-]	culture	Cryptococcus gattii	LMM 818	-	-	-	MIC99	-	11.3 µg/mL
O=C(Nc1ccc2cc(S(=O)(=O)[O-])cc(S(=O)(=O)[O-])c2c1)c1ccccc1	culture	Adenovirus	TYPE 3	Human embryonic lung cells	-	cytopathic effect	inhibition	50 µg/mL	0%
COc1ccc(N2CCN(c3cncc(-c4ccc(Oc5ccccc5)cc4)n3)CC2)cc1OC	target	Cytomegalovirus	-	-	UL97 kinase	-	inhibition	10 µM	>15%
CCOC(=O)c1c(C)nc(OCCCNc2ccnc3cc(Cl)ccc23)nc1-c1ccccc1	culture	Cryptococcus gattii	ATCC 24065	-	-	-	MIC99	-	8 µg/mL
Cc1ccc(C(=O)Nc2ccc(S(=O)(=O)O)c3cc(S(=O)(=O)O)cc(S(=O)(=O)O)c23)cc1NC(=O)c1cccc(NC(=O)Nc2cccc(C(=O)Nc3cc(C(=O)Nc4ccc(S(=O)(=O)O)c5cc(S(=O)(=O)O)cc(S(=O)(=O)O)c45)ccc3C)c2)c1	culture	Adenovirus	TYPE 3	Human amnion AV3 cells	-	cytopathic effect	inhibition	5 µg/mL	0%
COc1cccc(N2CCN(c3cncc(-c4ccccc4)n3)CC2)c1	target	Cytomegalovirus	-	-	UL97 kinase	-	inhibition	10 µM	>15%
Cc1cc(CCCOc2c(C)cc(-c3noc(C(F)(F)F)n3)cc2C)on1	culture	Rhinovirus	Isolate 3	OHIO HELA-I	-	cytopathic effect / visual reading	EC50	-	0.02 µg/mL
COc1cccc(N2CCN(c3cncc(-c4ccc(F)cc4)n3)CC2)c1	target	Cytomegalovirus	-	-	UL97 kinase	-	IC50	-	<10 µM
Cc1cc(-c2ccc(N=Nc3c(N)c(S(=O)(=O)O)cc4cc(S(=O)(=O)O)ccc34)c(C)c2)ccc1N=Nc1c(N)ccc2cc(S(=O)(=O)O)ccc12	culture	Rhinovirus	-	Human embryonic lung cells	-	cytopathic effect	inhibition	10 µg/mL	20%
Fc1ccc(N2CCCCC2)c(NC(=S)c2ccncc2)c1	host protein	-	-	-	PrKX	kinase activity	inhibition	10 µM	12%
CCNc1cncc(-c2ccc(C(N)=O)cc2)n1	target	Cytomegalovirus	-	-	UL97 kinase	-	inhibition	1 µM	<50%
CCOC(=O)c1ccc(OCCC2CCN(c3ccc(C)nn3)CC2)cc1	culture	Rhinovirus	106F (LDL receptor group 30)	KB	-	neutral red	EC50	-	0.298 µM
C=CCc1ccc(OC)c(OC)c1	culture	Candida albicans	3178	-	-	turbidity	MIC90	-	350 µg/mL
O=S(=O)([O-])c1ccc2c(NS(=O)(=O)c3ccccc3)cc(S(=O)(=O)[O-])cc2c1	culture	Adenovirus	TYPE 3	Human embryonic lung cells	-	cytopathic effect	inhibition	5 µg/mL	23%
Oc1ccccc1N=Cc1cccc(O)c1O	culture	Cryptococcus gattii	L-28/02	-	-	-	MIC99	-	4 µg/mL
Cc1cc(-c2ccc(N=Nc3c(S(=O)(=O)O)cc4cc(S(=O)(=O)O)cc(N)c4c3O)c(C)c2)ccc1N=Nc1c(S(=O)(=O)O)cc2cc(S(=O)(=O)O)cc(N)c2c1O	culture	Adenovirus	TYPE 3	Human embryonic lung cells	-	cytopathic effect	inhibition	50 µg/mL	20%
CCOC(=O)c1c(C)nc(NCCCNc2ccnc3cc(Cl)ccc23)nc1-c1ccccc1	culture	Cryptococcus gattii	29/10893	-	-	-	MIC99	-	4 µg/mL
COc1ccccc1N1CCN(c2cncc(-c3ccc(N(C)C)cc3)n2)CC1	target	Cytomegalovirus	-	-	UL97 kinase	-	inhibition	10 µM	>15%
Nc1ccccc1S(=O)(=O)O	culture	Herpes simplex virus	-	Human amnion AV3 cells	-	cytopathic effect	inhibition	50 µg/mL	10%

A second listing of 2 rows from above:

SMILES,kind,species,strain or isolate,cell line,target,read by,endpoint,dose,value
CCOC(=O)c1c(C)nc(NCCCCNc2ccnc3cc(Cl)ccc23)nc1-c1ccccc1[N+](=O)[O-],culture,Cryptococcus gattii,LMM 818,-,-,-,MIC99,-,11.3 µg/mL
COc1cccc(N2CCN(c3cncc(-c4ccc(F)cc4)n3)CC2)c1,target,Cytomegalovirus,-,-,UL97 kinase,-,IC50,-,<10 µM